Columns and labels:
[1] = tested on: Hantavirus nucleocapsid protein (NP), wild type (Sin Nombre virus); test: BLI
[2] = tested on: Hantavirus nucleocapsid protein (NP), wild type (Sin Nombre virus); test: filter binding

VCP mRNA 5' UTR point mutant (542nd AUG to AUC)
Kd [1]: 16 nM
Kd [2]: 71 nM
